According to PubChem BioAssay AID485341 (National Center for Advancing Translational Sciences (NCATS), 2010):
“And” between values parts separate entries of the source, which are not always exact repeats. Identical values can stand only once. Only a part is listed here, and it is no random draw. The source made the active and inactive calls. The call rests on the fitted dose curve; in most records, active means well fitted inhibition curve with a large enough effect; inconclusive means small, poorly fitted or top-dose-only effect; inactive means no such curve, though single readings can be large or run the other way.

Amino acid sequences for entries named in this document (tags omitted). A change or cut given only in a name is not applied to a line headed by its entry.
UniProt P00811: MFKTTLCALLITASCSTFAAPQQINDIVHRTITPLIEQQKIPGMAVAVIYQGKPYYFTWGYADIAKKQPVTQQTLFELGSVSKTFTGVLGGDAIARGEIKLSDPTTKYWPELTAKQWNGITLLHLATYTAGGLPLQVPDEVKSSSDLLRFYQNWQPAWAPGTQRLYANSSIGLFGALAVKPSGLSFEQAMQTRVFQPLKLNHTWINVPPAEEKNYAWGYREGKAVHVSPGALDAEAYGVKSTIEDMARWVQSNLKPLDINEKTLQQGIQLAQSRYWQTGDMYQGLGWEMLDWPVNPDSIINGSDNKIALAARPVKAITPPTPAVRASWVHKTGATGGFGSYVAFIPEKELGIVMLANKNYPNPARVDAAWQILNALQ

biological target: Beta-lactamase (Escherichia coli (strain K12)) (UniProt P00811); assay: qHTS Inhibitors of AmpC Beta-Lactamase (assay without detergent); conditions: AmpC nitrocefin hydrolysis, absorbance 480 nm, 0.0001% Triton; at 57.1 µM (top of the series) unless noted; further: nearly all actives have a fitted effect of over 20% in size
Experimental: NIH Molecular Libraries Probe Production Network [MLPCN] NIH Chemical Genomics Center [NCGC] Assay Provider: Professor Brian Shoichet, UCSF Assay Overview: This aggregation profiling approach exploits the sensitivity of aggregate formation to detergent. Inhibition of b-lactamase is measured in the presence and absence of 0.01% Triton X-100. This particular assay had the prescence of 0.01% Triton X-100. See Pubchem assay "Promiscuous and Specific Inhibitors of AmpC Beta-Lactamase (assay without detergent)" for related screen. Compounds that inhibit only in the absence of detergent are considered likely promiscuous aggregators. A screen of 1,030 compounds was performed in Brian Shoichet's lab in 96-well format. AmpC activity was measured by following the absorbance at 480 nm. Nitrocefin is a chromogenic substrate: while nitrocefin is yellow (lmax 390 nm), the product of its hydrolysis is red (lmax 486 nm, 17,000 M-1). AmpC beta lactamase was provided by Shoichet Lab, UCSF.
Buffer: 20 mM phosphate buffer, pH 7.0 Triton X-100: No Detergent screen: 0.0001%, Detergent screen: 0.01%. Reagents/Controls: Buffer in columns 3 and 4 as negative control (no enzyme). 5.3 nM AmpC in columns 1, 2, 5-48. Titration of UCSF compound 9 control (from 10 mM, then 1:2) pin-transferred to column 2. Column 1 is neutral (100% activity). Assay Steps: Six uL of reagents were dispensed to 1536-well Greiner black clear bottom plates. Compounds and controls (23 nL) were transferred via Kalypsys PinTool. The plates were incubated for 15 min at room temperature, and then 2 uL of 800 uM solution of nitrocefin was added to start the reaction. The plates were immediately transferred to and read every 20 seconds for 4 min on ViewLux (Perkin-Elmer) High-throughput CCD imager using 480 nm absorbance protocol. During dispense, reagent bottles were kept submerged into 4 deg C water bath. Keywords: NIH Roadmap, MLSCN, MLI, MLSMR, qHTS, NCGC, AmpC Beta-Lactamase, Aggregation

SMILES	activity change, negative = inhibition
CN1CCCC(OC(=O)C(c2ccccc2)c2ccccc2)C1 (centres undefined)	inactive: 8.37%
Clc1ccc(Cl)c(NC2=NCC(CBr)S2)c1 (centres undefined)	inactive: -22.5%
COc1ccccc1OP(=O)(Nc1ccc(C)cn1)Oc1ccccc1OC	inactive: -7.39%
Cc1ccc(OP(=O)(Nc2nccs2)Oc2ccc(C)cc2)cc1	inactive: -33.9%
CN(C(=O)Cc1ccc(Cl)c(Cl)c1)[C@H]1CCCC[C@H]1N1CCCC1	inactive: 9.01%
Cc1ccc(N/C(=N/P(=O)(N2CCOCC2)N2CCOCC2)N2CCOCC2)cc1	inactive: -7.28%
NC(=O)c1cc([N+](=O)[O-])cc([N+](=O)[O-])c1N	inactive: -8.43%
Oc1ccccc1CNc1ccccn1	inactive: -13.5%
O=C(NC(Sc1ccncn1)C(Cl)(Cl)Cl)c1ccccc1 (centres undefined)	inactive: -21.1%
Cc1c2non([O-])c-2c(C)[n+](=O)[n+]1[O-]	inactive: -26.4%
Nc1cc(N)c2nonc2c1[N+](=O)[O-]	inactive: -10.1%
CC(C)CC(=O)NC(Sc1ccc(Cl)cc1)C(Cl)(Cl)Cl (centres undefined)	inactive: -12.2%
Cc1cc(SC(NC(=O)c2ccc(F)cc2)C(Cl)(Cl)Cl)ncn1 (centres undefined)	inactive: -11.5%
CCOP(=O)(Nc1ccccc1)OCC	inactive: -4.96% and inactive: -6.1%
Cc1ccc(NP(=O)(Oc2ccccc2F)Oc2ccccc2F)nc1	inactive: -12.3%
O=P(Nc1nc2ccc(Cl)cc2s1)(c1ccccc1)c1ccccc1	inactive: -36.2%
CC(=O)Nc1ccc([As](=O)(O)O)cc1	inactive: -1.02%
O=C(O)c1ccccc1[As](=O)(O)O	inactive: -21.8%
Nc1cccc2ccc([As](=O)(O)O)cc12	inactive: -14.4%
CCN(N=Nc1nonc1N)c1nonc1N	inactive: -17.1%
O=[N+]([O-])c1cc([N+](=O)[O-])c(CCN2CCOCC2)c([N+](=O)[O-])c1	inactive: -52.4%
O=C(Nc1cc([As](=O)(O)O)ccc1O)c1ccccc1	inactive: -13.1%
O=C(O)CNc1ccc([As](=O)(O)O)cc1	inactive: -6.66%
O=[N+]([O-])c1cccc(NC2=NCC(CBr)S2)c1 (centres undefined)	inactive: -13.4%
O=[N+]([O-])c1ncn(CCn2ncnc2[N+](=O)[O-])n1	inactive: -7.08%

SMILES	activity change, negative = inhibition
CC(C)(C)C(=O)NC(Sc1ccncn1)C(Cl)(Cl)Cl (centres undefined)	inactive: -0.218%
Cc1ccc(NP(=O)(Oc2ccccc2)Oc2ccccc2)nc1	inactive: -30.5%
CCc1nc2c(n1)c1c(non1O)c1c2no[n+]1[O-]	inactive: -8.86%
O=[N+]([O-])c1cc([N+](=O)[O-])c(CCNc2ccccc2)c([N+](=O)[O-])c1	inactive: -46.1%
O=[N+]([O-])c1cccc2n[nH]nc12	inactive: 0.585%
CC(=O)N1C2C3N(C(C)=O)C1C1N(C(C)=O)C(C(N1C(C)=O)N3C(C)=O)N2C(C)=O	inactive: -6.59%
COc1ccc(C2=NCC(CBr)S2)cc1 (centres undefined)	inactive: -4.1%
CC1CCN(C(=O)Oc2c(Cl)cc(Cl)c3cccnc23)CC1	inactive: 139%
CC(C)=N/N=C(\N)N[N+](=O)[O-]	inactive: 6.7%
CN(C)C(=O)OCCc1n(C)cc[n+]1C	inactive: -14.3%
CCN(/C(=N/P(=O)(N1CCOCC1)N1CCOCC1)N1CCOCC1)c1ccc(OC)cc1	inactive: 0.723%
Nc1ccc([As](=O)(O)c2ccc(N)cc2)cc1	inactive: 75.8%
C[N+]1=C2C=CC=CC=C2SC12C([N+](=O)[O-])=CC([N+](=O)[O-])=C[C-]2[N+](=O)[O-] (centres undefined)	inactive: -31.6%
c1nnnn1CCn1cnnn1	inactive: -21.8%
CC(C)C(=O)NC(Sc1ccccc1)C(Cl)(Cl)Cl (centres undefined)	inactive: -9.87%
O=P(Nc1nccs1)(c1ccccc1)c1ccccc1	inactive: -16%
O=P(Nc1nc2ccccc2s1)(c1ccccc1)c1ccccc1	inactive: -20.8%
C[C@H]1OP(=O)(Oc2ccccc2)[C@H](O)[C@H](O)[C@H]1N=[N+]=[N-] (some centres undefined)	inactive: -16.6%
O=P(Nc1ccccn1)(c1ccc(Br)cc1)c1ccc(Br)cc1	inactive: 5.64%
CN(C)C1(CNC(=O)c2ccc(Cl)c(S(N)(=O)=O)c2)CCCCC1	inactive: 1.49%
O=C(OC1CN2CCC1CC2)c1cccc(Cl)c1 (centres undefined)	inactive: -5.77%
C(Cc1nn[nH]n1)Cc1nn[nH]n1	inactive: 1.17%
Nc1ccc([As](=O)(O)c2ccc([N+](=O)[O-])cc2)cc1	inactive: -11.8%
O=[As](O)(c1ccccc1)c1ccc(O)cc1	inactive: -2.83%
O=[N+]([O-])c1ccc(O)c(/C=N/Nc2ccc([N+](=O)[O-])cc2[N+](=O)[O-])c1	inactive: -25%

SMILES	activity change, negative = inhibition
O=[N+]([O-])c1ncn(CCn2cnc([N+](=O)[O-])n2)n1	inactive: -3.23%
CC(=O)NC(SC(=S)N(C)C)C(Cl)(Cl)Cl (centres undefined)	inactive: -10%
c1ccc(-c2nn[nH]n2)c(-c2nn[nH]n2)c1	inactive: 7.3%
CCOC(=O)NC(Sc1ccccc1)C(Cl)(Cl)Cl (centres undefined)	inactive: -33.4%
Cc1ccc(NP(=O)(Oc2cccc(C)c2)Oc2cccc(C)c2)nc1	inactive: -16.7%
CCNC(=S)/N=C(\N)N[N+](=O)[O-]	inactive: -12.9%
O=C(NC1CCS(=O)(=O)C1)NP(=S)(Oc1ccccc1)Oc1ccccc1 (centres undefined)	inactive: -28.5%
CC(NC(=O)COC(=O)C(O)(c1ccccc1)c1ccccc1)c1ccccc1 (centres undefined)	inactive: 23.1%
Cc1ccccc1OP(=O)(Nc1ccccn1)Oc1ccccc1C	inactive: 0.899%
O=c1c2cc([N+](=O)[O-])ccc2[nH]c2c([N+](=O)[O-])cc([N+](=O)[O-])cc12	inactive: -16.7%
CN(C)C(=O)Oc1noc2ccccc12	inactive: -10.3%
O=C(OC1CN2CCC1CC2)c1ccccc1 (centres undefined)	inactive: -10.4%
CCC(=O)N1C2C3N(C(=O)CC)C1C1N(C(=O)CC)C(C(N1C(=O)CC)N3C(=O)CC)N2C(=O)CC	inactive: -3.85%
COC(=O)c1cc2c(s1)N=C(c1ccccc1)N(C)P2(=O)N1CCOCC1 (centres undefined)	inactive: -8.87%
Cc1ccc(OP(=O)(Nc2ccccn2)Oc2ccc(C)cc2)cc1	inactive: -8.35% [at 11.4 µM]
CC(=O)NC(SC(=S)N(CC(C)C)CC(C)C)C(Cl)(Cl)Cl (centres undefined)	inactive: -15.6%
CC(C)(C)C(=O)NC(Sc1ccccc1)C(Cl)(Cl)Cl (centres undefined)	inactive: -4.66%
O=P1(Nc2nc3ccc(Cl)cc3s2)COc2ccccc2O1 (centres undefined)	inactive: -18.6%
CCOc1ccc(C2=NCC(CBr)S2)cc1 (centres undefined)	inactive: 97.3%
CC(=O)Nc1ccc([As](=O)(O)O)c(O)c1	inactive: -4.88%
CC(=O)Nc1ccc(Oc2c([N+](=O)[O-])cc([N+](=O)[O-])cc2[N+](=O)[O-])cc1	inactive: -11.5%
Cc1ccccc1CN(C)C(=O)COC(=O)C(O)(c1ccccc1)c1ccccc1	inactive: 10.4%
C[C@H]1OP(=O)(Oc2ccccc2)C[C@@H]2O[C@@H]21 (some centres undefined)	inactive: -8.48%
C[C@@H]1C=CCP(=O)(Oc2ccccc2)O1 (some centres undefined)	inactive: -7.36%
CC(=O)c1ccc(N2CC2c2ccncc2)cc1 (centres undefined)	inactive: -10.1%

SMILES	activity change, negative = inhibition
O=[As](O)(c1cccc(O)c1)c1cccc(O)c1	inactive: -11.2%
O=C(OC1CN2CCC1CC2)c1ccc(Cl)cc1 (centres undefined)	inactive: -4.97%
O=[As](O)(O)c1cccnc1	inactive: -10.8%
COc1cc(C(=O)NCC2(N3CCOCC3)CCCCC2)cc(Cl)c1OC(C)C	inactive: -4.09%
CS(=O)(=O)c1ccc(Cl)c(NC(=O)COC(=O)C(O)(c2ccccc2)c2ccccc2)c1	inactive: 19.2%
COc1cc(C2NCCC3(OCCO3)C2(C)C)cc(OC)c1OC (centres undefined)	inactive: -12.9%
CCOP(=O)(Nc1cccc2ccccc12)OCC	inactive: -5.21%
Nc1cccc2c([As](=O)(O)O)cccc12	inactive: -0.533%
Cc1ccc(NCCc2c([N+](=O)[O-])cc([N+](=O)[O-])cc2[N+](=O)[O-])cc1	inactive: -51%
CCCOP(=S)(Nc1nc(N)cc(=O)[nH]1)OCCC	inactive: -44.4%
Nc1ccccc1[As](=O)(O)c1ccccc1	inactive: -11.1%
O=C(O)COc1ccc([As](=O)(O)O)cc1[N+](=O)[O-]	inactive: -0.794%
CCOP1(=S)c2c(C)nn(CCC#N)c2N=C(c2ccccc2F)N1C (centres undefined)	inactive: 78.6%
O=P(Nc1nccs1)(Oc1ccccc1)Oc1ccccc1	inactive: -33.3%
O=P(Nc1nccs1)(c1ccccc1)c1nc2ccccc2s1 (centres undefined)	inactive: -13.9%
CS(=O)(=O)c1cc([N+](=O)[O-])c2no[n+]([O-])c2c1	inactive: -8.64%
N#CCCN(C(=O)COC(=O)C(O)(c1ccccc1)c1ccccc1)c1ccc(F)cc1	inactive: 81.8%
CCOP1(=S)c2c(C)nn(CCC#N)c2N=C(c2ccc(F)cc2)N1C (centres undefined)	inactive: 96.1%
CN(C(=O)Cc1ccccc1)[C@@H]1CC[C@]2(CCCO2)C[C@H]1N1CCCC1	inactive: 19.3%
O=[N+]([O-])c1ccc2c(c1)nnn2O	inactive: -0.202%
NC(=O)Nc1ccc([As](=O)(O)O)cc1	inactive: -19.1%
CN(C)C1(CNC(=O)c2ccc(S(C)(=O)=O)cc2)CCCCC1	inactive: -8.18%
O=C(/C=C/c1ccccc1)OC1CN2CCC1CC2 (centres undefined)	inactive: -2.31%
Cc1nn(-c2ccccc2)c2c1P(=O)(N1CCOCC1)N(C)C(c1ccccc1)=N2 (centres undefined)	inactive: 55.5%
